Experimental findings from PMC4999862, “Site-specific Isopeptide Bridge Tethering of Chimeric gp41 N-terminal Heptad Repeat Helical Trimers for the Treatment of HIV-1 Infection” (Scientific Reports, 2016) are described below.

Bridge positions count the residues as written; N and C are the ends. I, II: the chains in the order shown.

The subject of this data set is MT-2 cells. In kind it is cell-based. The settings on record: CC50 in MT-2 cells / EC50 HIV-1IIIB. As to the method:
The cytotoxic effect of the compounds on MT-2 cells was determined using the XTT assay as described previously.
In the case of “I: Ac-EQEAIKKKIEAIEKAIEAQQHLLQLTVWGIKQLQARIL-NH2 / II: Ac-EQEAIKKKIEAIEKAIEAQQHLLQLTVWGIKQLQARIL-NH2 / III: Ac-EQEAIKKKIEAIEKAIEAQQHLLQLTVWGIKQLQARIL-NH2 (amide I:8-III:13, I:13-II:8, II:13-III:8) [(IZ14N24N)3]”, the “SI (selectivity index) = CC50/EC50 for inhibiting HIV-1IIIB infection” value is greater than 50000.

With “I: Ac-EQEAIKKKIEAIEKLLQLTVWGIKQLQARIL-NH2 / II: Ac-EQEAIKKKIEAIEKLLQLTVWGIKQLQARIL-NH2 / III: Ac-EQEAIKKKIEAIEKLLQLTVWGIKQLQARIL-NH2 (amide I:8-III:13, I:13-II:8, II:13-III:8) [(IZ14N17)3]”, the “SI (selectivity index) = CC50/EC50 for inhibiting HIV-1IIIB infection” value amounted to 3842.

Consider “I: Ac-EQEAIKKKIEAIEKLLQLTVWGIKQLQARILAVERYLK-NH2 / II: Ac-EQEAIKKKIEAIEKLLQLTVWGIKQLQARILAVERYLK-NH2 / III: Ac-EQEAIKKKIEAIEKLLQLTVWGIKQLQARILAVERYLK-NH2 (amide I:8-III:13, I:13-II:8, II:13-III:8) [(IZ14N24C)3]”, for which the “SI (selectivity index) = CC50/EC50 for inhibiting HIV-1IIIB infection” value is 1925.

As to “I: Ac-IKKEQEAIKKKIEAIEKLLQLTVWGIKQLQARIL-NH2 / II: Ac-IKKEQEAIKKKIEAIEKLLQLTVWGIKQLQARIL-NH2 / III: Ac-IKKEQEAIKKKIEAIEKLLQLTVWGIKQLQARIL-NH2 (amide I:11-II:16, I:16-III:11, II:11-III:16) [(IZ17N17)3]”, the “SI (selectivity index) = CC50/EC50 for inhibiting HIV-1IIIB infection” value is on record as 976.

Regarding “I: Ac-IKKKIEAIEKAIEAQQHLLQLTVWGIKQLQARIL-NH2 / II: Ac-IKKKIEAIEKAIEAQQHLLQLTVWGIKQLQARIL-NH2 / III: Ac-IKKKIEAIEKAIEAQQHLLQLTVWGIKQLQARIL-NH2 (amide I:4-II:9, I:9-III:4, II:4-III:9) [(IZ10N24N)3]”, the “SI (selectivity index) = CC50/EC50 for inhibiting HIV-1IIIB infection” value stood at 3833.

Consider “I: Ac-IKKKIEAIEKLLQLTVWGIKQLQARIL-NH2 / II: Ac-IKKKIEAIEKLLQLTVWGIKQLQARIL-NH2 / III: Ac-IKKKIEAIEKLLQLTVWGIKQLQARIL-NH2 (amide I:4-II:9, I:9-III:4, II:4-III:9) [(IZ10N17)3]”, for which the “SI (selectivity index) = CC50/EC50 for inhibiting HIV-1IIIB infection” value stood at 34.

Take “I: Ac-IKKKIEAIEKLLQLTVWGIKQLQARILAVERYLK-NH2 / II: Ac-IKKKIEAIEKLLQLTVWGIKQLQARILAVERYLK-NH2 / III: Ac-IKKKIEAIEKLLQLTVWGIKQLQARILAVERYLK-NH2 (amide I:4-II:9, I:9-III:4, II:4-III:9) [(IZ10N24C)3]”: the “SI (selectivity index) = CC50/EC50 for inhibiting HIV-1IIIB infection” value was 454.
